PubChem BioAssay AID624099, ICCB-Longwood – 2012
The whole screen tested about 21,000 reagents; shown is an unselected part. 497 of all reagents (2.4%) were called active. 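Higher z means weaker E2 silencing; only reporter increases were scored, and knock-downs that hurt cell survival may mask genuine repressor factors.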

Screen: 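Human genes that papillomavirus E2 requires to repress the HPV18 LCR promoter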 (primary screen)
Cells: human C33A cervical carcinoma cells (HPV-negative) stably expressing BPV1 E2 and an HPV18 LCR luciferase reporter
Knock-down reagent: siRNA pool against human genes, 40 nM
Timing: 72 h
Read-out: 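HPV18 LCR reporter light per well, converted to plate-wise z-scores that exclude control wells, and averaged over triplicate plates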
Direction: mean z-score and z-score: higher = stronger reporter signal, weaker E2 silencing
Active means: 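Mean z ≥ 2 together with z ≥ 2 in two or more of the three replicates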

Silencing of ACO1 (aconitase 1) came out at: mean z-score 1.35; z-score, replicate A = 1.28; z-score, replicate B = 1.46; z-score, replicate C = 1.31; inactive.
NCK2 (NCK adaptor protein 2) scored mean z-score 0.02; z-score, replicate A = -0.19; z-score, replicate B = 0.08; z-score, replicate C = 0.17; inactive.
Knock-down of MIR646HG (MIR646 host gene) resulted in: mean z-score -0.95; z-score, replicate A = -0.55; z-score, replicate B = -1.44; z-score, replicate C = -0.85; inactive.
Silencing of CHST12 (carbohydrate sulfotransferase 12) gave: mean z-score 0.99; z-score, replicate A = 1.03; z-score, replicate B = 1.2; z-score, replicate C = 0.73; inactive.
GATA6 (GATA binding protein 6) showed mean z-score -0.45; z-score, replicate A = -0.56; z-score, replicate B = -0.4; z-score, replicate C = -0.4; inactive.
After knock-down of RNF216 (ring finger protein 216), the screen gave mean z-score 1.5; z-score, replicate A = 1.35; z-score, replicate B = 1.38; z-score, replicate C = 1.77; inactive.
Knock-down of SYNGAP1 (synaptic Ras GTPase activating protein 1) gave: mean z-score -0.82; z-score, replicate A = -0.54; z-score, replicate B = -1.53; z-score, replicate C = -0.38; inactive.
For SLC39A8 the deposit lists mean z-score 0.44; z-score, replicate A = 0.76; z-score, replicate B = 0.22; z-score, replicate C = 0.34; inactive.

2 entries from above, arranged by “z-score, replicate A”, highest first:
SLC39A8 → mean z-score = 0.44; z-score, replicate A = 0.76; z-score, replicate B = 0.22; z-score, replicate C = 0.34; outcome = inactive
SYNGAP1 (synaptic Ras GTPase activating protein 1) → mean z-score = -0.82; z-score, replicate A = -0.54; z-score, replicate B = -1.53; z-score, replicate C = -0.38; outcome = inactive

The listing continues:
LINC00313 (long independently transcribed non-coding RNA 313) gave mean z-score 0.33; z-score, replicate A = 0.54; z-score, replicate B = 0.05; z-score, replicate C = 0.39; inactive.
CATSPER4 (cation channel sperm associated 4) gave mean z-score 1.13; z-score, replicate A = 1.22; z-score, replicate B = 0.98; z-score, replicate C = 1.19; inactive.
After knock-down of LINC00636 (long independently transcribed non-coding RNA 636) the results were mean z-score -0.55; z-score, replicate A = -0.69; z-score, replicate B = -0.78; z-score, replicate C = -0.16; inactive.
With knock-down of PIK3C2A, the record shows mean z-score 0.13; z-score, replicate A = 0.11; z-score, replicate B = 0.15; z-score, replicate C = 0.13; inactive.
Knock-down of DIRAS3 (DIRAS family GTPase 3) came out at: mean z-score 0.71; z-score, replicate A = 0.65; z-score, replicate B = 0.9; z-score, replicate C = 0.57; inactive.
ALKBH5 (alkB homolog 5, RNA demethylase) gave mean z-score 0.2; z-score, replicate A = 0.33; z-score, replicate B = 0.24; z-score, replicate C = 0.03; inactive.
